Peptide text beside a SMILES is read from it.
Test system: E. coli membrane
Assay: Confocal microscopy of TAMRA-labelled peptide on E. coli
Format: cell-based
Settings: TAMRA attached to C-terminal; 1/2 the MIC, 37° C., 10 minutes

CC[C@H](C)[C@H](NC(=O)CNC(=O)[C@@H](NC(=O)[C@H](Cc1c[nH]cn1)NC(=O)[C@H](CCCCN)NC(=O)[C@H](CCCCN)NC(=O)[C@H](CC(C)C)NC(=O)[C@H](CCCCN)NC(=O)[C@H](Cc1c[nH]c2ccccc12)NC(=O)[C@@H](N)CCCCN)[C@@H](C)CC)C(=O)NCC(=O)N[C@@H](CCCCN)C(=O)N[C@@H](Cc1c[nH]cn1)C(=O)N[C@@H](Cc1ccccc1)C(=O)N[C@@H](CC(C)C)C(=O)N[C@@H](CO)C(=O)N[C@@H](C)C(=O)N[C@@H](CCCCN)C(=O)N[C@@H](CCCCN)C(=O)N[C@@H](Cc1ccccc1)C(N)=O [CMA3] (H-KWKLKKHIGIGKHFLSAKKF-NH2; N-terminus assumed)
location of the peptide on E. coli: observed on E. coli membrane

CC[C@H](C)[C@H](NC(=O)CNC(=O)[C@@H](NC(=O)[C@H](CCCCN)NC(=O)[C@H](CCCCN)NC(=O)[C@H](Cc1ccccc1)NC(=O)[C@H](CC(C)C)NC(=O)[C@H](CCCCN)NC(=O)[C@H](Cc1c[nH]c2ccccc12)NC(=O)[C@@H](N)CCCCN)[C@@H](C)CC)C(=O)NCC(=O)N[C@@H](CCCCN)C(=O)N[C@@H](Cc1ccccc1)C(=O)N[C@@H](CC(C)C)C(=O)N[C@@H](Cc1c[nH]cn1)C(=O)N[C@@H](CO)C(=O)N[C@@H](C)C(=O)N[C@@H](CCCCN)C(=O)N[C@@H](CCCCN)C(=O)N[C@@H](Cc1ccccc1)C(N)=O [CA-MA, reference compound] (H-KWKLFKKIGIGKFLHSAKKF-NH2)
location of the peptide on E. coli: observed on E. coli membrane

Reference: US9862749B2, “Analogue peptide CMA3 derived from CM-MA peptide and use thereof” (Industry-Academic Cooperation Foundation, Chosun University, priority 2014, dated 2018)
